Results of unrelated studies side by side (data: NIAID ChemDB).

Common to all: tests in culture; agent: Candida albicans

A number after MIC or MFC names an inhibition level or a share of isolates. Lines come from different laboratories, so protocols vary. Blank or dashed fields: not listed here.

SMILES | read by | conditions | measure | strain or isolate | value
Cc1c(Cl)[n+](=O)c2cc(Cl)ccc2n1[O-] |  |  | MIC | Clinical isolate 10 | 7.8 µg/mL
OC(Cn1cncn1)(Cn1cncn1)c1ccc(F)cc1F |  | 48 h | MIC90 | Isolate M27-T-micro | ≥100 µg/mL
CC(C)C(=O)CCC[C@@H]1CO[C@@](Cn2cccc2)(c2ccc(F)cc2F)C1 |  |  | MIC | B02630 | >100 µg/mL
CCCCCCCCCSc1cc(C(N)=S)ccn1 |  |  | MFC | 176 | >200 µg/mL
NC(=NCc1ccccc1)c1ccc2nc(-c3ccc4oc(-c5ccccc5)cc(=O)c4c3)[nH]c2c1 |  |  | MIC | ATCC 10231 | 6.25 µg/mL
N/C(=N\NC(CC(=O)c1ccc(Cl)cc1)c1ccccn1)c1ccccn1 |  |  | MIC | C873 | 40 µg/mL
O=C(/C=C/c1cccc(Cl)c1)OC1CCN(CC(O)(Cn2cncn2)c2ccc(F)cc2F)CC1 | broth dilution |  | MIC80 | Y0109 | 0.124 µM
CCCCCOc1ccc(-c2ccc(-c3ccc(C(=O)N[C@H]4CCCNC(=O)[C@@H]5C[C@H](N)CN5C(=O)[C@H]([C@@H](C)O)NC(=O)[C@H](Cc5ccc(O)cc5)NC(=O)[C@@H]5C[C@@H](O)CN5C(=O)[C@H]([C@@H](C)O)NC4=O)cc3)cc2)cc1 |  |  | MIC | ATCC 62376 | 50 µg/mL
CC(C)C(=O)CCC[C@H]1CO[C@@](Cn2cncn2)(c2ccc(F)cc2F)C1 |  |  | MIC | A.10231 | >100 µg/mL
Cc1ccc(-c2csc(N3N=C(c4cccs4)CC3c3ccc(Cl)cc3)n2)cc1 |  |  | MIC | Clinical isolates | 125 µg/mL
O=[n+]1c(Sc2ccccc2)c(CBr)n([O-])c2ccccc21 |  |  | MIC | Clinical isolate 22 | 15.6 µg/mL
C=C1C[C@@H]2C[C@@H]3CCO[C@@H](O3)c3cccc(c3)/C=C/C[C@H]3O[C@@H](/C(C)=C/I)[C@H](C)[C@@H](OC(=O)/C=C/C[C@@H](C1)O2)[C@H]3C | broth dilution |  | MIC | 96-489 | >64 µg/mL
Cc1c(S(=O)(=O)c2ccccc2)[n+](=O)c2cc(Cl)ccc2n1[O-] |  |  | MIC | Clinical isolate 20 | 62.5 µg/mL
O=C(/C=C/c1ccc(Cl)cc1)OC1CCN(CC(O)(Cn2cncn2)c2ccc(F)cc2F)CC1 | broth dilution |  | MIC80 | Y0109 | 0.124 µM
Cc1ccc(-c2csc(N3N=C(c4cccs4)CC3c3ccc(F)cc3)n2)cc1 |  |  | MIC | Clinical isolates | 125 µg/mL
CC(C)C(=O)CCC[C@@H]1CO[C@@](Cn2ccnc2)(c2ccc(F)cc2F)C1 |  |  | MIC | CI-2 | 50 µg/mL
C[C@@H](N1CCN(Cc2cn(Cc3ccc(Cl)cc3Cl)c3c(Cl)cccc23)CC1)[C@](O)(Cn1cncn1)c1ccc(F)cc1F | resazurin |  | MIC80 | ATCC MYA-1003 | >128 µg/mL
CCCCCOc1ccc(-c2ccc(-c3ccc(C(=O)N[C@H]4CCCNC(=O)[C@@H]5[C@@H](O)CCN5C(=O)[C@H]([C@@H](C)O)NC(=O)[C@H](CCc5ccc(O)cc5)NC(=O)[C@@H]5C[C@@H](O)CN5C(=O)[C@H]([C@@H](C)O)NC4=O)cc3)cc2)cc1 |  |  | MIC | ATCC 62376 | 0.2 µg/mL
CCC(C)n1ncn(-c2ccc(N3CCN(c4ccc(OC[C@H]5CO[C@](Cn6cncn6)(c6ccc(Cl)cc6Cl)O5)cc4)CC3)cc2)c1=O |  |  | Geometric mean MIC | 17 isolates fluconazole-susceptible | 0.05 µg/mL
N/C(=N\NC(CC(=O)c1ccccc1)c1ccncc1)c1ccccn1 |  |  | MIC | C873 | 80 µg/mL
CCCCCCCCCCCCC(=O)OC1CCN(CC(O)(Cn2cncn2)c2ccc(F)cc2F)CC1 | broth dilution |  | MIC80 | Y0109 | 0.48 µM
C=C1C[C@@H]2C[C@@H]3CCO[C@@H](O3)c3coc(n3)/C=C/C[C@H]3O[C@@H](/C(C)=C/c4coc(C[C@]5(OC)C[C@H](OC)C[C@H]([C@H](O)/C=C(C)/C=C/[C@@H](C/C=C/Cl)OC)O5)n4)[C@H](C)[C@@H](OC(=O)/C=C\C[C@@H](C1)O2)[C@H]3C | broth dilution |  | MIC | ATCC 14503 | >64 µg/mL
CC(C)N=C(N)c1ccc2nc(-c3ccc4oc(-c5ccccc5)cc(=O)c4c3)[nH]c2c1 |  |  | MIC | ATCC 10231 | 12.5 µg/mL
NC(=NC1CCCC1)c1ccc(-c2ccc(-c3ccc(C(N)=NC4CCCC4)cc3)o2)cc1 |  |  | MFC | Isolate 17 (strain 12-99) | 25 µg/mL
NC(=S)c1ccnc(SC2CCCCC2)c1 |  |  | MFC | 3a | 100 µg/mL
CC1C=C(c2ccc(Cl)cc2Cl)C(=O)O1 |  |  | MIC | ATCC 44859 | >125 µM
C=C1C[C@@H]2C[C@@H]3CCO[C@@H](O3)c3cccc(c3)/C=C/C[C@H]3O[C@@H](/C(C)=C/C#N)[C@H](C)[C@@H](OC(=O)/C=C/C[C@@H](C1)O2)[C@H]3C | broth dilution |  | MIC | 96-489 | >64 µg/mL
CCCCCCCCSc1cc(C(N)=S)ccn1 |  |  | MFC | 3a | 100 µg/mL
COc1ccc(/C=C/C(=O)OC2CCN(CC(O)(Cn3cncn3)c3ccc(F)cc3F)CC2)cc1OC | broth dilution |  | MIC80 | Y0109 | 0.03 µM
CCCCCCCCOc1ccc(N2CCN(c3ccc(C(=O)N[C@H]4CCCNC(=O)[C@@H]5C[C@H](N)CN5C(=O)[C@H](CCN)NC(=O)[C@H](CCc5ccc(O)cc5)NC(=O)[C@@H]5CCCN5C(=O)[C@H]([C@@H](C)O)NC4=O)cc3)CC2)cc1 |  |  | MIC | ATCC 62376 | 0.2 µg/mL
C[C@@H](c1ncncc1F)[C@](O)(Cn1cncn1)c1ccc(F)cc1F |  |  | MIC50 | ATCC 90028 | 0.0027 µg/mL
N/C(=N\NC(CC(=O)c1cccc(Cl)c1)c1ccncc1)c1ccccn1 |  |  | MIC | C873 | 40 µg/mL
Cc1ccc(C2CC(c3cccs3)=NN2c2nc(-c3ccc(Cl)cc3)cs2)cc1 |  |  | MIC | Clinical isolates | 125 µg/mL
CCCCCC1C=C(c2ccc(Cl)c(Cl)c2)C(=O)O1 |  |  | MIC | ATCC 44859 | >125 µM
CCCCN=C(N)c1ccc2nc(-c3ccc4oc(-c5ccccc5)cc(=O)c4c3)[nH]c2c1 |  |  | MIC | ATCC 10231 | 3.12 µg/mL
Cc1cccc(C(=O)CC(N/N=C(\N)c2ccccn2)c2ccncc2)c1 |  |  | MIC | C873 | 80 µg/mL
N=C(N)c1ccc2nc(-c3ccc4oc(-c5ccccc5)cc(=O)c4c3)[nH]c2c1 |  |  | MIC | ATCC 10231 | 12.5 µg/mL
C[C@H](N)C(=O)N[C@@H](C(=O)O)n1cc(F)c(=O)[nH]c1=O |  |  | MIC | B311 | >100 µg/mL
CCCCCOc1ccc(-c2ccc(-c3ccc(C(=O)N[C@H]4CCCNC(=O)[C@@H]5C[C@H](N)CN5C(=O)[C@H](CCC(=O)O)NC(=O)C(CCc5ccc(O)cc5)NC(=O)[C@@H]5C[C@@H](O)CN5C(=O)[C@H]([C@@H](C)O)NC4=O)cc3)cc2)cc1 |  |  | MIC | ATCC 62376 | 0.39 µg/mL
CC1C=C(c2ccccc2)C(=O)O1 |  |  | MIC | ATCC 44859 | >125 µM
C[C@@H](N1CCN(Cc2cn(Cc3ccc(F)cc3F)c3cc(N=[N+]=[N-])ccc23)CC1)[C@](O)(Cn1cncn1)c1ccc(F)cc1F | resazurin |  | MIC80 | ATCC MYA-1003 | >128 µg/mL
CCOc1cc2c(cc1F)n([O-])c(C)c(S(=O)(=O)c1ccccc1)[n+]2=O |  |  | MIC | Clinical isolate 13 | 15.6 µg/mL
Cc1c(O)cccc1C(=O)N[C@@H](CSc1ccccc1)[C@H](O)CN1C[C@H]2CCCC[C@H]2C[C@H]1C(=O)NC(C)(C)C |  |  | MIC | I148A | >64 µg/mL
CC(C)C(=N)CCC[C@H]1CO[C@@](Cn2cncn2)(c2ccc(F)cc2F)C1 |  |  | MIC | A.10231 | >100 µg/mL
C[C@@H](N1CCN(Cc2cn(Cc3ccc(Cl)cc3Cl)c3c(F)cccc23)CC1)[C@](O)(Cn1cncn1)c1ccc(F)cc1F | resazurin |  | MIC80 | ATCC MYA-1003 | >128 µg/mL
CC1C=C(c2cc3ccccc3n2C)C(=O)O1 |  |  | MIC | ATCC 44859 | >125 µM
CCCCCCSc1cc(C(N)=S)ccn1 |  |  | MIC | 42 | 25 µg/mL
COc1ccc(-c2csc(N3N=C(c4cccs4)CC3c3ccc(OC)cc3)n2)cc1 |  |  | MIC | Clinical isolates | 125 µg/mL
O=c1cc(-c2ccccc2)oc2ccc(-c3nc4ccc(C5=NCCCN5)cc4[nH]3)cc12 |  |  | MIC | ATCC 10231 | 6.25 µg/mL
C=C1C[C@@H]2C[C@@H]3CCO[C@@H](O3)c3cccc(c3)/C=C/C[C@H]3O[C@@H](/C(C)=C/I)[C@H](C)[C@@H](OC(=O)/C=C\C[C@@H](C1)O2)[C@H]3C | broth dilution |  | MIC | UCD-FR1 | >64 µg/mL
O=C(/C=C/c1ccccc1Br)OC1CCN(CC(O)(Cn2cncn2)c2ccc(F)cc2F)CC1 | broth dilution |  | MIC80 | Y0109 | 0.114 µM
CC(C)C(=O)CCC[C@@H]1CO[C@@](Cn2cncn2)(c2ccc(F)cc2F)C1 |  |  | MIC | CI-2 | 100 µg/mL
C[C@H](N)C(=O)NC(C(=O)O)n1cc(F)c(=O)[nH]c1=O |  |  | MIC | BC759 | 6.3 µg/mL
Cc1cc(=O)c2cc(-c3nc4ccc(C(N)=NC(C)C)cc4[nH]3)ccc2o1 |  |  | MIC | ATCC 10231 | 25 µg/mL
N/C(=N\NC(CC(=O)c1ccccc1)c1cccnc1)c1ccccn1 |  |  | MIC | C873 | >160 µg/mL
CC(C)N=C(N)c1ccc2nc(-c3ccc(-c4cc(=O)c5ccccc5o4)s3)[nH]c2c1 |  |  | MIC | ATCC 10231 | 12.5 µg/mL
C=C1C[C@@H]2C[C@@H]3CCO[C@@H](O3)c3coc(n3)/C=C/C[C@H]3O[C@@H](/C(C)=C/c4coc(C[C@]5(O)C[C@H](OC)C[C@H]([C@H](O)/C=C(C)/C=C/[C@@H](C/C=C/Cl)OC)O5)n4)[C@H](C)[C@@H](OC(=O)/C=C\C[C@@H](C1)O2)[C@H]3C | broth dilution |  | MIC | ATCC 14503 | 2 µg/mL
N/C(=N\NC(CC(=O)c1ccc(Cl)c(Cl)c1)c1ccncc1)c1ccccn1 |  |  | MIC | C873 | 20 µg/mL
C[C@@H](N1CCN(Cc2cn(Cc3ccc(Cl)cc3)c3c(Cl)cccc23)CC1)[C@](O)(Cn1cncn1)c1ccc(F)cc1F | resazurin |  | MIC80 | ATCC 90028 | 0.125 µg/mL
CC(C)N=C(N)c1ccc2nc(-c3ccc(-c4cc(=O)c5ccccc5o4)cc3)[nH]c2c1 |  |  | MIC | ATCC 10231 | 6.25 µg/mL
CCC(C)n1ncn(-c2ccc(N3CCN(c4ccc(OC[C@H]5CO[C@](Cn6cncn6)(c6ccc(Cl)cc6Cl)O5)cc4)CC3)cc2)c1=O | broth dilution |  | MIC80 | Y0109 | 0.089 µM
C[C@@H](N1CCN(Cc2cn(Cc3ccc(F)cc3F)c3c(Cl)cccc23)CC1)[C@](O)(Cn1cncn1)c1ccc(F)cc1F | resazurin |  | MIC80 | ATCC 90028 | 0.125 µg/mL
Cc1ccc(C(=O)CC(N/N=C(\N)c2ccccn2)c2ccncc2)cc1 |  |  | MIC | C873 | 80 µg/mL
CN[C@H]1CCCNC(=O)[C@@H]2C[C@H](N)CN2C(=O)[C@H]([C@@H](C)O)NC(=O)[C@H](CCc2ccc(O)cc2)NC(=O)[C@@H]2C[C@@H](O)CN2C(=O)[C@H]([C@@H](C)O)NC1=O |  |  | MIC | ATCC 62376 | 12.5 µg/mL

The last 9 rows once more:

SMILES,read by,conditions,measure,strain or isolate,value
CC(C)N=C(N)c1ccc2nc(-c3ccc(-c4cc(=O)c5ccccc5o4)s3)[nH]c2c1,,,MIC,ATCC 10231,12.5 µg/mL
C=C1C[C@@H]2C[C@@H]3CCO[C@@H](O3)c3coc(n3)/C=C/C[C@H]3O[C@@H](/C(C)=C/c4coc(C[C@]5(O)C[C@H](OC)C[C@H]([C@H](O)/C=C(C)/C=C/[C@@H](C/C=C/Cl)OC)O5)n4)[C@H](C)[C@@H](OC(=O)/C=C\C[C@@H](C1)O2)[C@H]3C,broth dilution,,MIC,ATCC 14503,2 µg/mL
N/C(=N\NC(CC(=O)c1ccc(Cl)c(Cl)c1)c1ccncc1)c1ccccn1,,,MIC,C873,20 µg/mL
C[C@@H](N1CCN(Cc2cn(Cc3ccc(Cl)cc3)c3c(Cl)cccc23)CC1)[C@](O)(Cn1cncn1)c1ccc(F)cc1F,resazurin,,MIC80,ATCC 90028,0.125 µg/mL
CC(C)N=C(N)c1ccc2nc(-c3ccc(-c4cc(=O)c5ccccc5o4)cc3)[nH]c2c1,,,MIC,ATCC 10231,6.25 µg/mL
CCC(C)n1ncn(-c2ccc(N3CCN(c4ccc(OC[C@H]5CO[C@](Cn6cncn6)(c6ccc(Cl)cc6Cl)O5)cc4)CC3)cc2)c1=O,broth dilution,,MIC80,Y0109,0.089 µM
C[C@@H](N1CCN(Cc2cn(Cc3ccc(F)cc3F)c3c(Cl)cccc23)CC1)[C@](O)(Cn1cncn1)c1ccc(F)cc1F,resazurin,,MIC80,ATCC 90028,0.125 µg/mL
Cc1ccc(C(=O)CC(N/N=C(\N)c2ccccn2)c2ccncc2)cc1,,,MIC,C873,80 µg/mL
CN[C@H]1CCCNC(=O)[C@@H]2C[C@H](N)CN2C(=O)[C@H]([C@@H](C)O)NC(=O)[C@H](CCc2ccc(O)cc2)NC(=O)[C@@H]2C[C@@H](O)CN2C(=O)[C@H]([C@@H](C)O)NC1=O,,,MIC,ATCC 62376,12.5 µg/mL